Data as given in PubChem BioAssay AID1259414 (Drosophila RNAi Screening Center, 2018)
In all, the deposit lists about 24,000 reagents; shown is a random part of those with a known target gene and a result. Of all reagents, about 1,210 (5%) are marked active. 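Inactive calls also include excluded dsRNAs with several or no targets, genes unexpressed in JW18, and well A1, regardless of score.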 A number with no mark means an inactive call. A plus sign joins genes that one reagent is predicted to hit.

Screen: 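Fly genes that alter Wolbachia amount inside host cells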 (primary screen)
System: Drosophila JW18 cells infected with Wolbachia
Reagents: long dsRNA against Drosophila genes, 0.25 µg dsRNA per well of a 384-well plate
Time to read-out: 5 days
Conditions: cells persistently infected with Wolbachia before knock-down; no added drug
Measured: 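Imaged fluorescence in situ signal for Wolbachia 23S rRNA per DAPI-counted host cell, given as a robust z-score within each plate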
Reading the numbers: Wolbachia per cell robust z: higher = more Wolbachia per host cell than the plate typical
Call rule: 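Active if absolute robust z reaches 1.5 in two or more of three replicates, leaving out multi- or no-target dsRNAs, genes unexpressed in JW18 and A1 wells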

{"target gene": "CG4972", "PubChem SID": "SID104182590", "Wolbachia per cell robust z, rep 1": 0.221, "Wolbachia per cell robust z, rep 2": 0.553, "Wolbachia per cell robust z, rep 3": -0.00552}
{"target gene": "dsf", "PubChem SID": "SID104183316", "Wolbachia per cell robust z, rep 1": -5.13, "Wolbachia per cell robust z, rep 2": -1.52, "Wolbachia per cell robust z, rep 3": -0.0671}
{"target gene": "dsf", "PubChem SID": "SID104202771", "Wolbachia per cell robust z, rep 1": 0.0383, "Wolbachia per cell robust z, rep 2": 0.797, "Wolbachia per cell robust z, rep 3": 2.08}
{"target gene": "CG4660", "PubChem SID": "SID104198170", "Wolbachia per cell robust z, rep 1": -0.143, "Wolbachia per cell robust z, rep 2": -0.684, "Wolbachia per cell robust z, rep 3": -3.62}
{"target gene": "CG13630", "PubChem SID": "SID104194423", "Wolbachia per cell robust z, rep 1": -3.65, "Wolbachia per cell robust z, rep 2": 0.213, "Wolbachia per cell robust z, rep 3": -0.69}
{"target gene": "CG12155", "PubChem SID": "SID104202651", "Wolbachia per cell robust z, rep 1": 0.868, "Wolbachia per cell robust z, rep 2": 0.46, "Wolbachia per cell robust z, rep 3": -1.36}
{"target gene": "CG10222", "PubChem SID": "SID104189506", "Wolbachia per cell robust z, rep 1": 0.724, "Wolbachia per cell robust z, rep 2": -2.05, "Wolbachia per cell robust z, rep 3": 0.074}
{"target gene": "CG10222", "PubChem SID": "SID104206611", "Wolbachia per cell robust z, rep 1": -0.3, "Wolbachia per cell robust z, rep 2": 0.211, "Wolbachia per cell robust z, rep 3": 1.45}
{"target gene": "CROT", "PubChem SID": "SID104194310", "Wolbachia per cell robust z, rep 1": -0.253, "Wolbachia per cell robust z, rep 2": 0.738, "Wolbachia per cell robust z, rep 3": -0.188}
{"target gene": "CROT", "PubChem SID": "SID104194311", "Wolbachia per cell robust z, rep 1": "0.311 (active)", "Wolbachia per cell robust z, rep 2": -3.36, "Wolbachia per cell robust z, rep 3": -4.19}
{"target gene": "CROT", "PubChem SID": "SID104206277", "Wolbachia per cell robust z, rep 1": -0.862, "Wolbachia per cell robust z, rep 2": 0.971, "Wolbachia per cell robust z, rep 3": 0.535}
{"target gene": "lncRNA:CR42715", "PubChem SID": "SID104218978", "Wolbachia per cell robust z, rep 1": -0.434, "Wolbachia per cell robust z, rep 2": -0.57, "Wolbachia per cell robust z, rep 3": -0.166}
{"target gene": "btn + CG6937", "PubChem SID": "SID104196709", "Wolbachia per cell robust z, rep 1": -2.63, "Wolbachia per cell robust z, rep 2": -0.0255, "Wolbachia per cell robust z, rep 3": 0.0577}
{"target gene": "hyd", "PubChem SID": "SID104196763", "Wolbachia per cell robust z, rep 1": 1.62, "Wolbachia per cell robust z, rep 2": -1.5, "Wolbachia per cell robust z, rep 3": 0.716}
{"target gene": "hyd", "PubChem SID": "SID104206838", "Wolbachia per cell robust z, rep 1": -4.07, "Wolbachia per cell robust z, rep 2": -0.174, "Wolbachia per cell robust z, rep 3": -1.4}
{"target gene": "JMJD5", "PubChem SID": "SID104188164", "Wolbachia per cell robust z, rep 1": -4.24, "Wolbachia per cell robust z, rep 2": 0.407, "Wolbachia per cell robust z, rep 3": -0.221}
{"target gene": "JMJD5", "PubChem SID": "SID104204364", "Wolbachia per cell robust z, rep 1": -1.2, "Wolbachia per cell robust z, rep 2": -1.77, "Wolbachia per cell robust z, rep 3": 0.501}
{"target gene": "SREBP", "PubChem SID": "SID104190974", "Wolbachia per cell robust z, rep 1": "2.14 (active)", "Wolbachia per cell robust z, rep 2": 2.6, "Wolbachia per cell robust z, rep 3": 0.961}
{"target gene": "CG7900", "PubChem SID": "SID104196128", "Wolbachia per cell robust z, rep 1": 0.223, "Wolbachia per cell robust z, rep 2": 0.598, "Wolbachia per cell robust z, rep 3": -0.795}
{"target gene": "CG7900", "PubChem SID": "SID104201122", "Wolbachia per cell robust z, rep 1": "-1.26 (active)", "Wolbachia per cell robust z, rep 2": -1.81, "Wolbachia per cell robust z, rep 3": -1.61}
{"target gene": "Ilp7", "PubChem SID": "SID104197687", "Wolbachia per cell robust z, rep 1": 0.617, "Wolbachia per cell robust z, rep 2": 0.303, "Wolbachia per cell robust z, rep 3": 0.541}
{"target gene": "HtrA2", "PubChem SID": "SID104196217", "Wolbachia per cell robust z, rep 1": 0.997, "Wolbachia per cell robust z, rep 2": 0.456, "Wolbachia per cell robust z, rep 3": -9.3}
{"target gene": "HtrA2", "PubChem SID": "SID104207097", "Wolbachia per cell robust z, rep 1": "-3.12 (active)", "Wolbachia per cell robust z, rep 2": -2.17, "Wolbachia per cell robust z, rep 3": -4.05}
{"target gene": "Fpps", "PubChem SID": "SID104187221", "Wolbachia per cell robust z, rep 1": 0.266, "Wolbachia per cell robust z, rep 2": 1.67, "Wolbachia per cell robust z, rep 3": -0.978}
